From the supplement of paper PMC9931576
Changes are numbered by the printed parent chain. Human monoclonal antibodies against the spike receptor-binding domain (heavy:light variable regions). IC50 against pseudoviruses bearing the spike of naturally observed variants; lower = stronger; >10 µg/ml means not reached at the top dose. No active / inactive call. The stated detection limit is 0.0005 µg/ml; values near or below 0.001 µg/ml lie at the floor of the assay.

B1: BD55-6227 (protein)
chain 1: QVQLVQSGAEVRKPGASVKVSCKASGYSFTNYAMSWVRQAPGQGLEWMGWIISNNGDTDYAPKLQDRVTMTTDTSTSTGYMELTSLRSDDTAVYYCVRAAGHYYDGFYFDLWGRGTLVTVSS
chain 2: SYELTQPPSVSVSPGQTARITCSADPLPRQYSYWYQQKPGQAPVLVIYKDTQRPSGVPERFSASTSGTKVTLTISGVQAEDEADYYCQSADSSGAVFGGGTKLVVL
B2: BD55-6236 (protein)
chain 1: QVQLQESGPGLVRPSETLSLTCTVSGGSINSDHYYWGWIRQSPGKGLEWIGSIFYSGTTYYNPSLDSRVTLSLDTSKNHFSLKLTSVTAADSAVYYCARDTGPLVYCGGDCLLVPNFYFGMDVWGQGTTVTVSS
chain 2: YVLTQPPSVSVAPGKTARLSCGGSNIGTRSVHWYQQKPGQAPVLVVYDDSHRPSGIPERFSGSNSGNTATLTISRVEAGDEADYYCQVWESMSGRPNWVFGGGTKVTVL
B3: BD55-1192 (protein)
chain 1: QVQLVESGGGVVQPGRSLRLSCAASGFTPILYAMHWVRQAPGKGLEWVALISFDGINRYYADSVKGRFTISRDSSKNTLYLLMNSLRAEDTAVYYCAKDRRGGNVITPPYGMDVWGQGTTVTVSS
chain 2: DIVMTQTPLSLSVTPGQPASISCKSSQSLLHIDGKTYLSWYLQKPGQSPHLLIYDGVNRFSGVPDKFSGSGSGTDFTLKISRVEAEDVGFYYCMQSIQLPLTFGGGTKVEIK
B4: BD55-6247 (protein)
chain 1: EVQLVESGGGLVQPGGSLRLSCAASRFKFSSYWMTWVRQAPGKGLECVANIRQDGGEKYYVDSVKGRFTISRDNAKNSLYLQMNSLRAEDTAVYYCAREYRVSGYDILTGYNGISYYMDVWGKGTTVTVSS
chain 2: QSVLTQPPSVSAAPGQKVTISCSGSSSNIGNHYVSWYRQLPGTAPKLLINDNNKRPSGIPDRFSGSKSGTSATLDITGLQTGDEADYYCGTWDSSLSVVVFGGGTKLTVL
B5: BD55-6248 (protein)
chain 1: QVQLVQSGAEVKKPGSSVKVSCKASGDTVSAYGISWVRQAPGQGLEWMGRIIPILGRANYAQNFQGRVTITADTSTSTAYMELSSLRSEDTAVYFCARDLLNAVTTSESPPVGIWGQGTLVTVSS
chain 2: DIVMTQSPDSLAVSLGERATINCKSSQSVLYTSNNKNYLAWYQQKPGQPPKLLIYWASTRESGVPDRFSGSGSGTDFTLTISSLQAEDVAVYYCQQYYSAPLTFGPGTKVDIK
B6: BD55-6253 (protein)
chain 1: QGQLQESGPGLVRPSETLSLTCAVSGDSSSNYYWTWIRQPPGKGLEWVGHVHYTGTTNYSPSLKRRVTISLDTSKNQFSLKLSSVTAADTAVYYCTRAPWLGYYHPVGAFDIWGQGTTVTVSS
chain 2: B5 chain 2 with R18G, T32N, I54L, E61D, A100P, P106G, D111E
B7: BD55-6240 (protein)
chain 1: QVQLQESGPGLVKPSQTLSLTCTVSGGSISSRSYDWSWLRQPAGKGLEWIGRIYGSGGSNHNPSLKSRVTISVDTSKNQFSLKLSSVTAADTAVYYCARHSGYDPEFDYWGQGTLVTVSS
chain 2: DIQMTQSPSTLSASVGDRVTITCRASQSISRWLAWYQQKPGKAPKLLIYKASILESGVPSRFSGSGSGTDFTLTISSLQPDDFATYYCQQYNSYSTFGPGTKVDMK
B8: BD55-6251 (protein)
chain 1: QLQLVESGGGVVQPGRSLRLSCAASGFIFSDFDMHWVRQAPGKGLEWMAVIWYDGSEQYYGDSVKGRFTISRDNSRNTLYLQMNGLRAEDTAMYYCARLTTERKYSGYDHVSQEPNIWGHGTLVAVSS
chain 2: SSELTQDPAVSVALGQTVRITCQGDGLRSYYATWSQQKPGQAPVVVIYGKNKRPSGIPDRFSGSDSGDTAYLTITGAQAEDEADYYCSSRDRGEYQYVFGTGTKVTVL
B9: BD55-6259 (protein)
chain 1: QVHLVQSGAEVKKPGASVKLSCKTSGNTFSTNYMHWVRQAPGQGLEWMGFINPTSGTTDYAQKFQGRVTVTSDTSTSTIYMELTSLTSEDTAIYYCARESSGVMVAENHFDYWGQGTRVTVSS
chain 2: EVVLTQSPGILSLSLGERATLSCRASQHVSSNYLAWYQQKSGQAPRLLIYGASTRATGIPDRFSGSGSGTHFTLTISRLEPEDFAVYYCQQYYTSPRTFGQGTRMEIK
B10: BD55-6252 (protein)
chain 1: EVQLVQSGAEVKKPGESLRISCKGSGYSFSNFWITWVRQMPGKGPEWIGRIYPSDSYTTYNPSFQGHVTISADKSISTAYLQWSSLKASDTAMYYCASQQLERMGYYYMDVWGEGTTVTVSS
chain 2: DIQMTQSPSSLSASIGDRVTITCRASQTISNYLNWYQQKPGKAPKLLIYEASTLQSGVPSRFGGSGSGTDFTLTISSLQPEDFATYYCQQSYSTPTWTFGQGTKVEIK
B11: BD55-6272 (protein)
chain 1: QVQLVQSGAEVRKPGSSVKVSCKASGGTFSSYAVSWVRQAPGQGLEWMGGIIPLFGTSNYAQKFQARVTITADGSTDTVYMELSSLTSEDTALYYCARAMDTALPPFFDYWGQGTLVTVSS
chain 2: EIVLTQSPATLSLSPGERATLSCKASQSVGSYLAWYQQKPGQAPRVLIYDASNRATGIPARFSGSGSGTDFTLTISSLEPEDFAVYYCQQRSNWPLTFGGGTKVEIK
B12: BD55-6263 (protein)
chain 1: HVQLQESGPGLVKPSQTLSLICNVSGGSISSGSYYWNWVRQPAGKGLEWIGHMYSGGRTSYNPSLKSRVTISVDTSKNQLSLSLKSATAADTAVYYCAREGEGGPIYSGYDHLDHYGMDVWGQGTTVTVSS
chain 2: SYELTQPPSVSVSPGQTATISCSGDKLADSYAFWYQQKPGQSPVLVIYRDNRRPSGIPERFSGSNSGNTATLTISGTQAMDESDYYCQAWDASTMIFGGGTKLTVL

How the values were obtained:
Assay in all cases: pseudovirus neutralization IC50; higher = weaker neutralization
[1] = biological target: SARS-CoV-2 Omicron BA.1 spike pseudovirus
Procedure: (§1)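 Single-round VSV luciferase pseudovirus mixed with antibody dilutions for 1 h and put on Huh-7 cells for about a day; IC50 from the dose curve.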

[2] = biological target: SARS-CoV-2 Omicron BA.2 spike pseudovirus
Procedure: as §1

[3] = biological target: SARS-CoV-2 Omicron BA.2.75 spike pseudovirus
Procedure: as §1

[4] = biological target: SARS-CoV-2 Omicron BA.5 spike pseudovirus
Procedure: as §1

[5] = biological target: SARS-CoV-2 Omicron BQ.1.1 spike pseudovirus
Procedure: as §1

[6] = biological target: SARS-CoV-2 Omicron XBB spike pseudovirus
Procedure: as §1

[7] = biological target: SARS-CoV-2 early D614G spike pseudovirus
Procedure: as §1

| Binder | pseudovirus neutralization IC50 [1] [µg/mL] | pseudovirus neutralization IC50 [2] [µg/mL] | pseudovirus neutralization IC50 [3] [µg/mL] | pseudovirus neutralization IC50 [4] [µg/mL] | pseudovirus neutralization IC50 [5] [µg/mL] | pseudovirus neutralization IC50 [6] [µg/mL] | pseudovirus neutralization IC50 [7] [µg/mL] |
| --- | --- | --- | --- | --- | --- | --- | --- |
| B1 | > 10 | > 10 | > 10 | > 10 | > 10 | > 10 | > 10 |
| B2 | > 10 | > 10 | > 10 | > 10 | > 10 | > 10 | > 10 |
| B3 | 0.543 | 0.216 | > 10 | 4.1 | 5.12 | > 10 | 0.693 |
| B4 | > 10 | > 10 | > 10 | > 10 | > 10 | > 10 | > 10 |
| B5 | > 10 | > 10 | > 10 | > 10 | > 10 | > 10 | > 10 |
| B6 | > 10 | > 10 | > 10 | > 10 | > 10 | > 10 | > 10 |
| B7 | > 10 | > 10 | > 10 | > 10 | > 10 | > 10 | > 10 |
| B8 | > 10 | > 10 | > 10 | > 10 | > 10 | > 10 | 0.0874 |
| B9 | > 10 | > 10 | > 10 | > 10 | > 10 | > 10 | > 10 |
| B10 | > 10 | > 10 | > 10 | > 10 | > 10 | > 10 | > 10 |
| B11 | > 10 | > 10 | > 10 | > 10 | > 10 | > 10 | > 10 |
| B12 | > 10 | > 10 | > 10 | > 10 | > 10 | > 10 | 0.13 |
